Experimental data as given in patent US20050226885A1.

Molecular target: IL2 receptors expressed on Raji cells
Assay: cell-based or functional assay

C215FabSEAD227A-Q-hIL2 (from UniProt P0A0L2 25-257; P60568 21-153)
potency in killing of Raji cells (SDCC assay), against C215FabSEAD227A (fold higher potency): 10
